# Screening data, single-dose tests

Measurements from “University of Dundee, Small-Polar-MMV Screening Library” (2021), ChEMBL document CHEMBL3988442.

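Phenotypic screen: M. tuberculosis growth, glucose 7H9 medium, 3 days; the read-out is not stated. Concentration: 500 µM. Higher reads as more growth inhibition (inferred: compounds with an IC50 in retests scored well above the rest). Of about 18,000 compounds tested this way, about 1,400 (7.9%) reached 50% or more in at least one test.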

Each number is a percent effect as filed.
How 0% and 100% were set is not recorded. Most values in the screen are low, and negative values occur.
The entries come from a sample that favours strong results.

| structure | percent effect |
|---|---|
| `COc1cc(F)ccc1NC(=O)C1CCOCC1` | 16.44 |
| `O=C(NCC[S+]([O-])c1ccccc1)c1cccnc1O` (stereo unspecified) | 17.54 |
| `CNCC(=O)N1CCC(Oc2ccc(C)cc2)CC1` | 43.67 |
| `NC(=O)NCC1CCCN(C(=O)NC2CCCCC2)C1` (stereo unspecified) | 4.771 |
| `Cc1onc(-c2ccccn2)c1C(=O)NC(C)C` | -6.042 |
| `CCS(=O)(=O)Cc1cc(=O)n(C)c(=O)n1C` | -9.365 |
| `COc1cc(N2CCNCC2)cc(OC)c1OC` | 30.42 |
| `CCOC(=O)c1ccc(S(=O)(=O)N2CCNCC2)o1` | 4.745 |
| `CC(C)Oc1ccc(CN)cc1` | 65.13 |
| `c1ncn(C2CCCCC2)c1CN1CCNCC1` | -6.853 |
| `O=C(CN1CCn2ccnc2C1)Nc1ccc(Cl)cn1` | 27.15 |
| `O=C(NCCc1cn[nH]c1)[C@H](O)C1CCCCC1` | 3.676 |
| `CCOC(=O)N1CCN(C(=O)C(C)CC)CC1` (stereo unspecified) | 11.22 |
| `NS(=O)(=O)NCc1ccc2c(c1)OCO2` | 32.34 |
| `CCC(C)(N)c1nc(=O)c2c([nH]1)CCC2` (stereo unspecified) | -1.916 |
| `CCc1n[nH]c(CC)n1` | 0.4871 |
| `O=C(CCn1ccccc1=O)NCc1ccco1` | 26.62 |
| `Cc1cc(-n2cccn2)ccc1CO` | 1.792 |
| `CCNC(=O)[C@@H]1C[C@H](N)CN1c1nc(C)ncc1CC` | 5.842 |
| `CSCCOC(=O)c1ccn(C(C)C)n1` | 77.38 |
| `NC(=O)c1sccc1NC(=O)c1ncccc1Br` | 33.18 |
| `CCNC1CCOC(C)(C)C1` (stereo unspecified) | -7.017 |
| `CC(C)OCc1cccc(NC(C)C(=O)NC(N)=O)c1` (stereo unspecified) | 24.73 |
| `CCC(O)(CC)CNc1nnnn1-c1ccc(C)cc1` | 32.89 |
| `CCc1nnc(CNC(=O)c2cnn(CC)c2C)s1` | 24.5 |
| `COCCCOc1ccc2c(c1)OCCO2` | 63.15 |
| `NC(=O)C1CCN(C(=O)COc2ccc(F)cc2Br)C1` (stereo unspecified) | 68.78 |
| `CCc1ncc(C(=O)N2CCN(c3nccs3)CC2)s1` | 65.73 |
| `CN1CCCC(CNC(=O)N2CCSC(C)(C)C2)C1` (stereo unspecified) | 15.81 |
| `COc1cccc(Nc2ccc(N)nc2)c1` | 73.49 |
| `COc1cccnc1CN` | 22.79 |
| `CC(c1cccc(O)c1)N(C)C(=O)c1ccncc1F` (stereo unspecified) | 26.43 |
| `COc1ccc(C(=O)NCc2ncnn2C)cc1Br` | 63.88 |
| `O=C(Cn1cnnn1)N(CC(F)(F)F)C1CCC1` | 2.449 |
| `CC(C(=O)Nc1cnc2ccccc2c1)S(C)(=O)=O` (stereo unspecified) | 21.07 |
| `CN1CC(C#N)CC1=O` (stereo unspecified) | 0.04566 |
| `CCc1ccccc1CN1C(=O)CCC1=O` | 57.76 |
| `CC(C)[C@H]1CN(C(=O)c2ccoc2)C[C@@H]1N` | 3.295 |
| `Cc1[nH]ncc1C(=O)NCCCSCC(C)C` | 57.05 |
| `CS(=O)(=O)N1CCN(C(=O)c2cc(C3CC3)on2)CC1` | 33.81 |
| `c1cc2c(cc1CN1CCCCC1)CNCCO2` | -11.49 |
| `CCn1c(CN2CC[C@@H](O)C2)nnc1[C@H]1C[C@@H](N)C1` | -14.77 |
| `CC(Cn1cccn1)NC(=O)CN1CCOC1=O` (stereo unspecified) | -14.51 |
| `CCn1cc(NC(=O)NC2CCN(C3CC3)CC2)cn1` | 3.284 |
| `COCCCNC(=O)c1cc(S(C)(=O)=O)ccc1C` | 8.969 |
| `CC1CN(CCC(=O)NCc2cccs2)CCCO1` (stereo unspecified) | 19.55 |
| `COc1cn(-c2ccccc2)nc1C(=O)NCC(C)C` | 67.38 |
| `COCCN1CCCC(C(=O)NCC(F)(F)F)C1` (stereo unspecified) | -12.27 |
| `CC1CCN(C(CN)c2cccs2)CC1` (stereo unspecified) | 45.09 |
| `O=C(NCC(=O)c1cccs1)c1ccon1` | 37.39 |
| `Cc1nc(CC(=O)NCCSc2nnnn2C)c(C)s1` | 24.08 |
| `O=S(=O)(CCN1CCCC1)c1ccccc1` | 21.45 |
| `CN(C)[C@@H]1CN(C(=O)c2ccnc(O)c2)C[C@H]1CO` | 3.746 |
| `CCc1ccsc1C(=O)NCC(C)N1CCN(C)CC1` (stereo unspecified) | 7.117 |
| `CN(C)CCNC(=O)c1ccc(F)cc1` | 7.753 |
| `CCn1ccc(C(=O)N(C)Cc2cccnc2OC)n1` | 60.43 |
| `Cc1c(C(N)=O)nnn1-c1ccc2c(c1)OCCO2` | -2.486 |
| `COCCN1CCN(c2ccccc2C#N)CC1` | 25.2 |
| `CN(C)C(=O)CCCS(=O)(=O)CC(=O)N1CCCCC1` | -3.615 |
| `N#Cc1cccc(CNc2ccncc2F)c1` | -8.361 |
| `CN1CCN(c2ccncc2N)CC1` | -7.556 |
| `CCS(=O)(=O)CCNc1cc(C2CC(N)C2)ncn1` (stereo unspecified) | 12.62 |
| `O=S(=O)(CCN1CCOCC(O)C1)c1ccccc1` (stereo unspecified) | 40.71 |
| `Cc1cc(C)n(CC(C)NC(=O)c2ccc(N)nc2)n1` (stereo unspecified) | 21.85 |
| `CN1CCN(S(C)(=O)=O)c2ccccc2C1` | -13.35 |
| `N#Cc1ccc(S(=O)(=O)N2CCC[C@@H](N)C2)cc1Cl` | 29.15 |
| `CC(NC(=O)c1ccc(Cl)s1)c1ncon1` (stereo unspecified) | 4.264 |
| `CNS(=O)(=O)c1cccc2nonc12` | 9.853 |
| `COc1csc(-c2cc(N)n(C)n2)c1` | 10.27 |
| `O=S(=O)(NCCN1CCNCC1)N1CCOCC1` | 2.881 |
| `Cc1nc(CNC(=O)c2cc(C3CC3)[nH]n2)cs1` | 53.41 |
| `N#CCSc1ccccc1C(=O)NC1CCS(=O)(=O)C1` (stereo unspecified) | 8.419 |
| `NCC(CO)c1ccccc1Cl` (stereo unspecified) | 15.33 |
| `C1CCC(OCC2CCNCC2)C1` | 4.17 |
| `C[C@]1(O)CCN(c2nnc(-c3ccccc3)s2)C[C@@H]1O` | 8.358 |
| `CCn1nc(C)cc1C(=O)Nc1ccnc(N(C)C)n1` | 56.85 |
| `CC(=O)NCc1cn2ccsc2n1` | 16.32 |
| `COc1ccccc1N1CCCC(N)C1` (stereo unspecified) | 37.55 |